Compound potency records, mixed from different reports. Data source: NIAID ChemDB in PubChem.

Common to all: enzyme or target tests; agent: HIV-1; target: Protease

Neighbouring rows are from separate reports. Blank or dashed fields: not listed here. ICn: concentration for n% inhibition.

smiles	changes	read by	measure	result
CC(C)C[C@H](NC(=O)[C@H](CC(N)=O)NC(=O)CCCCCCCCCCCCCCC(=O)N[C@@H](CC(N)=O)C(=O)N[C@@H](Cc1ccccc1)C(=O)O)C(=O)N[C@@H](Cc1ccccc1)C(N)=O	-	-	IC50	>5.5 µM
CC(C)(C)OC(=O)CNC(=O)C(NC(=O)Cc1ccccc1)[C@@H]1N[C@@H](C(=O)NCCNC(=O)[C@@H]2N[C@@H](C(NC(=O)Cc3ccccc3)C(=O)NCc3ccccc3)SC2(C)C)C(C)(C)S1	-	-	IC50	0.0019 µM
C[C@@H](O)[C@H](NC(=O)CCCCCCCCCCCCCCC(=O)N[C@@H](CC(N)=O)C(=O)N[C@@H](Cc1ccccc1)C(=O)O)C(=O)N[C@H](C(=O)N[C@@H](Cc1ccccc1)C(N)=O)C1CCCCC1	-	-	Ki	0.31 µM
CC(C[C@@H](O)[C@H](O)C(C)(C)O)[C@@H]1CC[C@]2(C)C3=CCC4C(C)(C)C(O)CC[C@]4(C)C3CC[C@@]12C	-	substrate cleavage / fluorescence	IC50	>100 µM
CSCC[C@H](NC(=O)[C@@H](NC(=O)CCCCCCCCCCCCCCC(=O)N[C@@H](CC(N)=O)C(=O)N[C@@H](Cc1ccccc1)C(=O)O)C(C)O)C(=O)N[C@@H](Cc1ccccc1)C(N)=O	-	-	IC50	4.96 µM
CCCCCC(=O)O[C@H]1CC[C@]2(C)[C@H]3CC=C4[C@@H]5CC(C)(C)CC[C@]5(C(=O)O)CC[C@@]4(C)[C@]3(C)CC[C@H]2C1(C)C	-	FRET	IC50	>1200 µg/mL
CC1(C)S[C@H](C(NC(=O)Cc2ccccc2)C(=O)NCc2ccccc2)N[C@H]1C(=O)NCCNC(=O)[C@@H]1N[C@@H](C(NC(=O)Cc2ccccc2)C(=O)NCc2ccc(CO)cc2)SC1(C)C	-	-	IC50	0.0058 µM
CCCCCCCCCCCC(=O)O[C@@H]1C[C@]2(C)[C@H]3CC=C4[C@@H]5CC(C)(C)CC[C@]5(C(=O)O)CC[C@@]4(C)[C@]3(C)CC[C@H]2C(C)(C)[C@H]1OC(=O)CCCCCCCCCCC	-	FRET	IC50	>1200 µg/mL
CO[C@@H]([C@@H](CC(C)[C@@H]1CC[C@]2(C)C3=CCC4C(C)(C)C(OC(=O)CCC(=O)O)CC[C@]4(C)C3CC[C@@]12C)OC(C)(C)C)C(C)(C)O	-	substrate cleavage / fluorescence	IC50	70 µM
CC(=O)O[C@H]1[C@H](O)C[C@]2(C)[C@H]3CC=C4[C@@H]5CC(C)(C)CC[C@]5(C(=O)O)CC[C@@]4(C)[C@]3(C)CC[C@H]2C1(C)C	-	FRET	IC50	>1200 µg/mL
COC1C[C@@H](C(=O)NC(C)(C)C)N(C(=O)C(=O)C(Cc2ccccc2)NC(=O)OCc2ccccc2)C1.COC1C[C@@H](C(=O)NC(C)(C)C)N(C(=O)C(=O)C(Cc2ccccc2)NC(=O)OCc2ccccc2)C1	-	fluorescence	Ki	0.22 µM
NC(=O)C[C@H](NC(=O)c1ccc2ccccc2n1)C(=O)N[C@@H](Cc1ccccc1)[C@H](O)C(O)CN1CCC[C@H]1C(F)(F)F	-	-	IC50	0.0005 µM
CON[C@H](C(=O)NC(=O)[C@H]1N(C(=O)[C@@H](O)[C@H](Cc2ccccc2)NC(=O)[C@@H](NC(=O)[C@H](Cc2c[nH]c3ccccc23)NC(=O)Oc2ccccc2)C(C)C)CSC1(C)C)C(C)C	-	-	IC50	0.025 µM
C[C@H]1CC[C@H](C(F)(F)F)N1C[C@@H](O)[C@H](Cc1ccccc1)NC(=O)[C@H](CC(N)=O)NC(=O)c1ccc2ccccc2n1	-	-	IC50	0.00002 µM
CC(C[C@@H](O)[C@H](O)C(C)(C)O)[C@@H]1CC[C@]2(C)C3=CCC(C(C)(C)C(=O)O)[C@](C)(CC(=O)O)C3CC[C@@]12C	-	substrate cleavage / fluorescence	IC50	38.2 µM
CCCC(=O)O[C@@H]1C[C@]2(C)[C@H]3CC=C4[C@@H]5CC(C)(C)CC[C@]5(C(=O)OCc5ccccc5)CC[C@@]4(C)[C@]3(C)CC[C@H]2C(C)(C)[C@H]1OC(=O)CCC	-	FRET	IC50	>1200 µg/mL
CC(C)[C@H](NC(=O)[C@H](Cc1cccc2ccccc12)CS(=O)(=O)C(C)(C)C)C(=O)N[C@@H](Cc1ccccc1)[C@@H](O)CN1CCCC[C@H]1C(F)(F)F	-	-	IC50	0.01 µM
CC1(C)CC[C@]2(C(=O)O)CC[C@]3(C)C(=CC[C@@H]4[C@@]5(C)CC[C@H](OC(=O)CCC(=O)O)C(C)(C)[C@@H]5CC[C@]43C)[C@@H]2C1	-	FRET	IC50	>1200 µg/mL
CON[C@H](C(=O)NC(=O)[C@H]1N(C(=O)[C@@H](O)[C@H](Cc2ccccc2)NC(=O)[C@@H](NC(=O)[C@H](Cc2ccccc2)NC(C)=O)C(C)C)CSC1(C)C)C(C)C	PR-V82A	-	IC50	0.016 µM
CC(=O)O[C@@H]1C[C@]2(C)[C@H]3CC=C4[C@@H]5CC(C)(C)CC[C@]5(C(=O)OCc5ccccc5)CC[C@@]4(C)[C@]3(C)CC[C@H]2C(C)(C)[C@H]1O	-	FRET	IC50	>1200 µg/mL
CON[C@H](C(=O)NC(=O)[C@H]1N(C(=O)[C@@H](O)[C@H](Cc2ccccc2)NC(=O)[C@@H](NC(=O)[C@H](Cc2c[nH]c3ccccc23)NC(C)=O)C(C)C)CSC1(C)C)C(C)C	-	-	IC50	0.018 µM
CC(C[C@@H](OC(=O)CC(C)(C)C(=O)O)[C@H](OC(=O)CC(C)(C)C(=O)O)C(C)(C)O)[C@@H]1CC[C@]2(C)C3=CCC4C(C)(C)C(=O)CC[C@]4(C)C3CC[C@@]12C	-	substrate cleavage / fluorescence	IC50	>100 µM
NC(=O)C[C@H](NC(=O)c1ccc2ccccc2n1)C(=O)N[C@@H](Cc1ccccc1)[C@H](O)CN1CC[C@H]2CCCC[C@H]2[C@H]1C(F)(F)F	-	-	IC50	0.3 µM
CON[C@H](C(=O)NC(=O)[C@H]1N(C(=O)[C@@H](O)[C@H](Cc2ccccc2)NC(=O)[C@@H](NC(=O)[C@H](C)NC(=O)Oc2ccccc2)C(C)C)CSC1(C)C)C(C)C	-	-	IC50	0.018 µM
CC(=O)O[C@H](CC(C)[C@@H]1CC[C@]2(C)C3=CCC4C(C)(C)C(=O)CC[C@]4(C)C3CC[C@@]12C)[C@H](OC(C)=O)C(C)(C)O	-	substrate cleavage / fluorescence	IC50	>100 µM
CC(C)C[C@H](NC(=O)[C@H](CS(C)(=O)=O)NC(=O)CCCCCCCCCCCCCCC(=O)N[C@@H](CC(N)=O)C(=O)N[C@@H](Cc1ccccc1)C(=O)O)C(=O)N[C@@H](Cc1ccccc1)C(N)=O	-	-	IC50	1.97 µM
CCC(=O)O[C@@H]1C[C@]2(C)[C@H]3CC=C4[C@@H]5CC(C)(C)CC[C@]5(C(=O)OCc5ccccc5)CC[C@@]4(C)[C@]3(C)CC[C@H]2C(C)(C)[C@H]1O	-	FRET	IC50	>1200 µg/mL
CC(C)[C@H](NC(=O)[C@H](C)NC(=O)OCc1ccccc1)C(=O)N[C@@H](Cc1ccccc1)[C@@H](O)[C@H](O)[C@H](Cc1ccccc1)NC(=O)[C@@H](NC(=O)[C@H](C)NC(=O)OCc1ccccc1)C(C)C	PR-V82F	-	IC50	0.015 µM
CC(C)[C@H](NC(=O)[C@H](Cc1cccc2ccccc12)CS(=O)(=O)C(C)(C)C)C(=O)N[C@@H](Cc1ccccc1)[C@@H](O)C(O)CN1CCCC[C@H]1C(F)(F)F	-	-	IC50	0.1 µM
CC(C[C@@H](OC(=O)CC(C)(C)C(=O)O)[C@H](OC(=O)CC(C)(C)C(=O)O)C(C)(C)O)[C@@H]1CC[C@]2(C)C3=CCC4C(C)(C)C(OC(=O)CC(C)(C)C(=O)O)CC[C@]4(C)C3CC[C@@]12C	-	substrate cleavage / fluorescence	IC50	45.3 µM
CC(C)C[C@H](NC(=O)[C@H](CC(N)=O)NC(=O)CCCCCCCCCCCCCCC(=O)N[C@H](C(=O)N[C@@H](CC(C)C)C(=O)N[C@@H](Cc1ccccc1)C(N)=O)C(C)O)C(=O)O	-	-	IC50	12 µM
COc1ccc(S(=O)(=O)N[C@@H](C)C(=O)N[C@H](C(=O)N[C@@H](Cc2ccccc2)C(O)C(O)[C@H](Cc2ccccc2)NC(=O)[C@@H](NC(=O)[C@H](C)NS(=O)(=O)c2ccc(OC)cc2)C(C)C)C(C)C)cc1	-	-	IC50	0.02 µM
CC(C)C[C@H](NC(=O)[C@@H](NC(=O)CCCCCCCCCCCCCCC(=O)N[C@@H](CC(N)=O)C(=O)N[C@@H](Cc1ccccc1)C(=O)O)C(C)C)C(=O)N[C@@H](Cc1ccccc1)C(N)=O	-	-	IC50	1.32 µM
CC1(C)CC[C@]2(C(=O)OCc3ccccc3)CC[C@]3(C)C(=CC[C@@H]4[C@@]5(C)CC[C@H](O)C(C)(C)[C@@H]5CC[C@]43C)[C@@H]2C1	-	FRET	IC50	>1200 µg/mL

The first 2 rows once more:

smiles	changes	read by	measure	result
CC(C)C[C@H](NC(=O)[C@H](CC(N)=O)NC(=O)CCCCCCCCCCCCCCC(=O)N[C@@H](CC(N)=O)C(=O)N[C@@H](Cc1ccccc1)C(=O)O)C(=O)N[C@@H](Cc1ccccc1)C(N)=O	-	-	IC50	>5.5 µM
CC(C)(C)OC(=O)CNC(=O)C(NC(=O)Cc1ccccc1)[C@@H]1N[C@@H](C(=O)NCCNC(=O)[C@@H]2N[C@@H](C(NC(=O)Cc3ccccc3)C(=O)NCc3ccccc3)SC2(C)C)C(C)(C)S1	-	-	IC50	0.0019 µM